A mixed list of measured activities; the numbers were collected in NIAID ChemDB.

Common to all: tests on isolated targets

An empty or dashed field is not shown. ICn is the concentration giving n% inhibition. Percent inhibition refers to the dose given; in toxicity tests it is the harm to the cells. Rows are shuffled and stem from different studies. a–b is a range or a potency band.

{"SMILES": "CC(C)NC1=NC(NC(C)C)N(CN)C(Nc2ccc3cn[nH]c3c2)=N1", "protein": "DNA polymerase", "organism": "Hepatitis B virus", "tested at": "0.1 µg/mL", "endpoint": "inhibition", "value": "63%"}
{"SMILES": "CNC(=O)c1c(-c2ccc(F)cc2)oc2cc(NS(C)(=O)=O)c(C3CCCO3)cc12", "protein": "Nonstructural protein 5B", "organism": "Hepatitis C virus", "endpoint": "IC50", "value": "≤0.5 µM"}
{"SMILES": "CNC(=O)C1CCN(c2nc(Nc3ccc4[nH]ncc4c3)nc(OC)n2)CC1", "protein": "DNA polymerase", "organism": "Hepatitis B virus", "tested at": "1 µg/mL", "endpoint": "inhibition", "value": "32%"}
{"SMILES": "O=C(O)c1ccc2c(c1)nc(-c1ccc3nc(-c4cc(Cl)ccc4-c4ccc(Cl)cc4)ccc3c1)n2C1CCCCC1", "protein": "NS5B polymerase", "organism": "Hepatitis C virus", "tested at": "100 µM", "endpoint": "inhibition", "value": "97.65%"}
{"SMILES": "c1cc(-c2cnc3c(-c4nn[nH]n4)cnn3c2C2CCCCC2)ccc1Oc1ccc2c(c1)OCO2", "protein": "RNA-dependent RNA polymerase", "organism": "Hepatitis C virus", "endpoint": "IC50", "value": "1–10 µM"}
{"SMILES": "CC[C@@H](C=O)NC(=O)[C@@H]1C[C@@H](OC(=O)Nc2cccc([N+](=O)[O-])c2)CN1C(=O)[C@@H](NC(=O)[C@@H](NC(=O)c1cnccn1)C(C)C)C(C)C", "protein": "NS3 protease", "organism": "Hepatitis C virus", "endpoint": "Ki", "value": "1–100 µM"}
{"SMILES": "CC(C)(C)OC(=O)NCC(NC(=O)Nc1ccsc1-c1nc(C(=O)O)c(O)c(=O)[nH]1)c1ccccc1", "protein": "HCV polymerase", "organism": "Hepatitis C virus", "endpoint": "IC50", "value": "<25 µM"}
{"SMILES": "CNC(=O)c1c(-c2ccc(F)cc2)oc2cc(NC(N)=O)c(OC(C)C)cc12", "protein": "Nonstructural protein 5B", "organism": "Hepatitis C virus", "endpoint": "IC50", "value": "≤0.5 µM"}
{"SMILES": "COC(=O)c1nc(-c2ccc(-c3sccc3NC(=O)CCC(=O)O)cc2)[nH]c(=O)c1O", "protein": "HCV polymerase", "organism": "Hepatitis C virus", "endpoint": "IC50", "value": "<50 µM"}
{"SMILES": "Cc1cc(-c2nc3cc(C(=O)O)ccc3n2C2CCCCC2)cc2ccc(-c3ccccc3)nc12", "protein": "NS5B polymerase", "organism": "Hepatitis C virus", "tested at": "33 µM", "endpoint": "inhibition", "value": "95.57%"}
{"SMILES": "O=C(NCc1nc2ccccc2s1)Nc1cscc1-c1nc(C(=O)O)c(O)c(=O)[nH]1", "protein": "HCV polymerase", "organism": "Hepatitis C virus", "endpoint": "IC50", "value": "<25 µM"}
{"SMILES": "O=C(N[C@H](Cc1ccccc1)C(=O)O)c1cnn2c(C3CCCCC3)c(-c3ccc(OCc4ccccc4)cc3)cnc12", "protein": "RNA-dependent RNA polymerase", "organism": "Hepatitis C virus", "endpoint": "IC50", "value": "1–10 µM"}
{"SMILES": "O=C(Nc1cc(-c2ccccc2)sc1C(=O)O)c1ccc(Cl)cc1", "protein": "NS3 ATPase", "organism": "Hepatitis C virus", "endpoint": "IC50", "value": "5–20 µM"}
{"SMILES": "COCCNc1nc(Nc2ccc3cn[nH]c3c2)nc(OC)n1", "protein": "DNA polymerase", "organism": "Hepatitis B virus", "endpoint": "IC50", "value": "<0.01 µg/mL"}
{"SMILES": "CC(=O)C(=O)C(=O)Nc1cnn2c(C3CCCCC3)c(-c3ccc(OCc4ccccc4)cc3)cnc12", "protein": "RNA-dependent RNA polymerase", "organism": "Hepatitis C virus", "endpoint": "IC50", "value": ">10 µM"}
{"SMILES": "O=C(O)c1ccc2c(c1)nc(-c1ccc3nc(-c4ccncc4)ccc3c1)n2C1CCCCC1", "protein": "NS5B polymerase", "organism": "Hepatitis C virus", "tested at": "100 µM", "endpoint": "inhibition", "value": "98.7%"}
{"SMILES": "CNC(=O)c1c(-c2ccc(F)cc2)oc2cc(N(CC(C)O)S(C)(=O)=O)c(OC)cc12", "protein": "Nonstructural protein 5B", "organism": "Hepatitis C virus", "endpoint": "IC50", "value": "≤0.5 µM"}
{"SMILES": "COc1ccc(-c2cc(-c3ccc(Oc4ccccc4)cc3)nc3cc(C(=O)O)nn23)cc1Cl", "protein": "RNA-dependent RNA polymerase", "organism": "Hepatitis C virus", "endpoint": "IC50", "value": "1–10 µM"}
{"SMILES": "CC[C@@H](C=O)NC(=O)[C@@H]1C[C@@H](OCc2ccccc2)CN1C(=O)[C@@H](NC(=O)c1ccc[nH]1)C(C)C", "protein": "NS3 protease", "organism": "Hepatitis C virus", "endpoint": "Ki", "value": "1–100 µM"}
{"SMILES": "CN(c1cc(-c2ccccc2)sc1C(=O)O)S(=O)(=O)c1ccc(Cl)cc1Cl", "protein": "NS3 ATPase", "organism": "Hepatitis C virus", "endpoint": "IC50", "value": "<5 µM"}
{"SMILES": "CCOC(=O)N1CCN(c2nc(Nc3ccc4[nH]ncc4c3)nc(OC)n2)CC1", "protein": "DNA polymerase", "organism": "Hepatitis B virus", "tested at": "1 µg/mL", "endpoint": "inhibition", "value": "43%"}
{"SMILES": "O=C(Cc1c(-c2ccccc2)[nH]c2ccccc12)Nc1cscc1-c1nc(C(=O)O)c(O)c(=O)[nH]1", "protein": "HCV polymerase", "organism": "Hepatitis C virus", "endpoint": "IC50", "value": "<25 µM"}
{"SMILES": "COc1nc(NCCCN2CCOCC2)nc(Nc2ccc3cn[nH]c3c2)n1", "protein": "DNA polymerase", "organism": "Hepatitis B virus", "tested at": "1 µg/mL", "endpoint": "inhibition", "value": "83%"}
{"SMILES": "Cc1ccc(-c2nc3ccc(-c4nc5cc(C(=O)O)ccc5n4C4CCCCC4)cc3nc2-c2ccc(C)cc2)cc1", "protein": "NS5B polymerase", "organism": "Hepatitis C virus", "tested at": "100 µM", "endpoint": "inhibition", "value": "99.55%"}
{"SMILES": "CCN(C(=O)C1CCC1)c1cc(-c2ccccc2)sc1C(=O)O", "protein": "NS3 ATPase", "organism": "Hepatitis C virus", "endpoint": "IC50", "value": "5–20 µM"}
{"SMILES": "O=C(O)c1cc2nc(-c3ccc(Cl)cc3)cc(Nc3ccc(Oc4ccccc4)cc3)n2n1", "protein": "RNA-dependent RNA polymerase", "organism": "Hepatitis C virus", "endpoint": "IC50", "value": ">10 µM"}
{"SMILES": "CC[C@@H](C=O)NC(=O)[C@@H]1C[C@@H](OCc2ccccc2)CN1C(=O)[C@@H](NC(=O)[C@@H](NC(=O)c1cnccn1)c1ccccc1)C(C)C", "protein": "NS3 protease", "organism": "Hepatitis C virus", "endpoint": "Ki", "value": "1–100 µM"}
{"SMILES": "Cc1ccc(C(=O)N(C)c2cc(-c3ccc(C)cc3)sc2C(=O)O)cc1", "protein": "NS3 ATPase", "organism": "Hepatitis C virus", "endpoint": "IC50", "value": "5–20 µM"}
{"SMILES": "CCC(CC)Cc1c(-c2ccc(OCc3ccccc3)cc2)nc2cc(C(=O)O)[nH]n2c1=O", "protein": "RNA-dependent RNA polymerase", "organism": "Hepatitis C virus", "endpoint": "IC50", "value": "1–10 µM"}
{"SMILES": "CC[C@@H](C=O)NC(=O)[C@@H]1C[C@@H](OC(=O)Nc2ccc(N3CCCCC3)c([N+](=O)[O-])c2)CN1C(=O)[C@@H](NC(=O)[C@@H](NC(=O)c1cnccn1)C(C)C)C(C)C", "protein": "NS3 protease", "organism": "Hepatitis C virus", "endpoint": "Ki", "value": "1–100 µM"}
{"SMILES": "CC(=O)Nc1ccc(-c2ccc3cc(-c4nc5cc(C(=O)O)ccc5n4C4CCCCC4)ccc3n2)cc1", "protein": "NS5B polymerase", "organism": "Hepatitis C virus", "tested at": "33 µM", "endpoint": "inhibition", "value": "90.61%"}
{"SMILES": "Cc1ccc(C(=O)N(CCO)c2cc(-c3ccccc3)sc2C(=O)O)cc1", "protein": "NS3 ATPase", "organism": "Hepatitis C virus", "endpoint": "IC50", "value": "<5 µM"}
{"SMILES": "O=C(O)c1cnc2c(c1)nc(-c1ccc3nc(-c4ccccc4-c4ccc(Cl)cc4)ccc3c1)n2C1CCCCC1", "protein": "NS5B polymerase", "organism": "Hepatitis C virus", "tested at": "33 µM", "endpoint": "inhibition", "value": "95.94%"}
{"SMILES": "Nc1cccc(-c2nc(C(=O)O)c(O)c(=O)[nH]2)c1", "protein": "HCV polymerase", "organism": "Hepatitis C virus", "endpoint": "IC50", "value": "<100 µM"}
{"SMILES": "CCOC(=O)c1cc2nc(-c3ccc(F)cc3)cc(-c3ccccc3Cl)n2n1", "protein": "RNA-dependent RNA polymerase", "organism": "Hepatitis C virus", "endpoint": "IC50", "value": ">10 µM"}
{"SMILES": "O=C(O)c1ccc2c(c1)nc(-c1ccc3nc(-c4ccccc4)cnc3c1)n2C1CCCCC1", "protein": "NS5B polymerase", "organism": "Hepatitis C virus", "tested at": "100 µM", "endpoint": "inhibition", "value": "97.54%"}
{"SMILES": "O=C(O)c1nc(-c2cccc(OCc3c(Cl)cccc3Cl)c2)[nH]c(=O)c1O", "protein": "HCV polymerase", "organism": "Hepatitis C virus", "endpoint": "IC50", "value": "<100 µM"}
{"SMILES": "CCCNC(=O)C(=O)[C@H](CC)NC(=O)[C@H](CC(C)C)NC(=O)[C@@H](NC(=O)[C@@H](NC(=O)[C@H](CC(=O)O)CC(=O)[C@H](CCC(=O)O)NC(C)=O)C(C)C)C(C)C", "protein": "NS3 protease", "organism": "Hepatitis C virus", "endpoint": "Ki", "value": "<1 µM"}
{"SMILES": "CNC(=O)c1c(-c2ccc(F)cc2)oc2cc(N3CCOCC3)c(OCc3ccc(OC)cc3)cc12", "protein": "Nonstructural protein 5B", "organism": "Hepatitis C virus", "endpoint": "IC50", "value": "≤0.5 µM"}
{"SMILES": "O=C(Nc1nn[nH]n1)c1cc2nc(-c3ccc(OCc4ccccc4)cc3)c(C3CCCCC3)c(=O)n2[nH]1", "protein": "RNA-dependent RNA polymerase", "organism": "Hepatitis C virus", "endpoint": "IC50", "value": "<1 µM"}
{"SMILES": "O=C(O)CCC(NC(=O)c1ccc2c(c1)nc(-c1ccc3nc(-c4ccccc4)cnc3c1)n2C1CCCCC1)C(=O)O", "protein": "NS5B polymerase", "organism": "Hepatitis C virus", "tested at": "33 µM", "endpoint": "inhibition", "value": "73.22%"}
{"SMILES": "O=C(O)c1sc(-c2ccc3c(c2)OCO3)cc1N(C1CCCC1)S(=O)(=O)c1ccc(Cl)cc1Cl", "protein": "NS3 ATPase", "organism": "Hepatitis C virus", "endpoint": "IC50", "value": "<5 µM"}
{"SMILES": "O=C(Nc1ccsc1-c1nc(OCc2ccccc2)c(O)c(C(=O)O)n1)OCc1ccccc1", "protein": "HCV polymerase", "organism": "Hepatitis C virus", "endpoint": "IC50", "value": "<50 µM"}

Again, the opening 6 rows:

SMILES	protein	organism	tested at	endpoint	value
CC(C)NC1=NC(NC(C)C)N(CN)C(Nc2ccc3cn[nH]c3c2)=N1	DNA polymerase	Hepatitis B virus	0.1 µg/mL	inhibition	63%
CNC(=O)c1c(-c2ccc(F)cc2)oc2cc(NS(C)(=O)=O)c(C3CCCO3)cc12	Nonstructural protein 5B	Hepatitis C virus	-	IC50	≤0.5 µM
CNC(=O)C1CCN(c2nc(Nc3ccc4[nH]ncc4c3)nc(OC)n2)CC1	DNA polymerase	Hepatitis B virus	1 µg/mL	inhibition	32%
O=C(O)c1ccc2c(c1)nc(-c1ccc3nc(-c4cc(Cl)ccc4-c4ccc(Cl)cc4)ccc3c1)n2C1CCCCC1	NS5B polymerase	Hepatitis C virus	100 µM	inhibition	97.65%
c1cc(-c2cnc3c(-c4nn[nH]n4)cnn3c2C2CCCCC2)ccc1Oc1ccc2c(c1)OCO2	RNA-dependent RNA polymerase	Hepatitis C virus	-	IC50	1–10 µM
CC[C@@H](C=O)NC(=O)[C@@H]1C[C@@H](OC(=O)Nc2cccc([N+](=O)[O-])c2)CN1C(=O)[C@@H](NC(=O)[C@@H](NC(=O)c1cnccn1)C(C)C)C(C)C	NS3 protease	Hepatitis C virus	-	Ki	1–100 µM